A mixed list of measured activities; the numbers were collected in NIAID ChemDB.

Common to all: growth or infection tests; species: HIV-1; read-out: inhibition

Conditions beyond the fields shown may differ between rows.

| compound | read by | cells | tested at | strain | value |
|---|---|---|---|---|---|
| CN=C1CN=C(c2ccc[nH]2)c2cc(Cl)ccc2N1 | antigen | H9 | 3 µM | IIIB | 90% |
| Nc1nc2c(ncn2[C@H]2CC[C@@H](CO)O2)c(=O)[nH]1 | cytopathic effect / trypan blue | ATH8 | 10 µM | IIIB | 100% |
| COc1cc(OC)c2c(O)c3c(=O)cc(C)oc3c(-c3c(OC)cc4cc5oc(C)cc(=O)c5c(O)c4c3OC)c2c1 | luciferase | TZM-bl | 10 µM | SF162 | 42.72% |
| CC[C@H](C)[C@H](NC(=O)[C@H](C/C=C/c1ccccc1)C[C@H](O)[C@H](Cc1ccccc1)NC(=O)OC(C)(C)C)C(=O)NCc1nc2ccccc2[nH]1 | antigen | H9 | 0.012 µM | RF | 100% |
| COc1cc(OC)c2c(O)c3c(=O)cc(C)oc3c(-c3c(OC)c4c(cc(O)c5c(O)cc(C)oc54)cc3=O)c2c1 | luciferase | TZM-bl | 10 µM | SF162 | 0.3% |
| O=C(O)[C@H]1O[C@@H](Oc2cc3oc(-c4ccccc4)cc(=O)c3c(O)c2O)[C@H](O)[C@@H](O)[C@@H]1O | cytopathic effect / p24 / ELISA | PBMC | 100 µg/mL | MN | 77% |
| Cc1ccnc2c1NC(=O)c1cccnc1N2C1CC1 | plaque count | HT4 + HT4-6C | 0.71 µM | BRU | 95% |
| COc1c(C(=O)NCc2ccc(C)cc2)ccc2nc(-c3ccc([N+](=O)[O-])cc3)n(C)c(=O)c12 | MTT | TZM-bl | 10 µM | - | >0% |
| CCCC(=O)O[C@H]1CN2CC[C@H](O)[C@@H]2[C@@H](O)[C@@H]1O | - | H9 | 40 µM | U455 | 99% |
| COc1c(C(=O)NCc2ccc(C)cc2)ccc2nc(Cc3ccc([N+](=O)[O-])cc3)n(C)c(=O)c12 | MTT | TZM-bl | 10 µM | - | >0% |
| c1cc(CN2CCCNCCNCCCNCC2)ccc1CN1CCCNCCNCCCNCC1 | p24 | PBMC | 0.1 µM | DJ258 CLADE A R5 | 0% |
| O=c1[nH]cnc2c1ncn2[C@@H]1C[C@H](CO)[C@H]1CO | cytopathic effect / trypan blue | ATH8 | 500 µM | IIIB | 4% |
| C[C@@H](Cn1cnc2c(N)nc(N)nc21)OCP(=O)(O)O | p24 / syncytia | Macrophage + Monocytes/macrophages | 5 µM | BaL | 97% |
| Cc1c(O)c(=O)ccn1C | XTT / p24 | Macrophage + Monocytes/macrophages | 100 µM | BaL | 0% |
| Nc1ncnc2c1ncn2C[C@@H](CO)OCP(=O)(O)O | cytopathic effect / antigen / trypan blue | MT-4 | 125 µM | IIIB | 42% |
| CC(=O)N[C@@H](CS)C(=O)O | MTT / p24 | U-937/HIV-1 + U-937 | 200 µM | - | 0% |
| COc1cc(OC)c2c(O)c3c(c(-c4c(O)cc5cc6c(c(O)c5c4OC)C(=O)CC(C)(O)O6)c2c1)OC(C)(O)CC3=O | luciferase | TZM-bl | 10 µM | SF162 | 32.38% |
| Cc1cn([C@H]2C[C@H](N=[N+]=[N-])[C@@H](CO)O2)c(=O)[nH]c1=O | virus yield | CEM | 10 µM | LAV-1 | >100% |
| CC1=C(C(=O)Nc2ccc(Cl)c(C(=O)OC(C)C)c2)SCCO1 | XTT | CEM + CEM-SS | 2 µM | RF | 67% |
| O=C(O)/C=C/c1ccc[c]([Sb](=[O])([OH])[OH])c1 | β-galactosidase | MAGI | 20 µM | NL4-3 X4 | 71.4% |
| Cc1cn([C@H]2C[C@H](N=[N+]=[N-])[C@@H](CO)O2)c(=O)[nH]c1=O | β-galactosidase | MAGI | 5 µg/mL | - | 82% |
| Cc1cn([C@H]2C[C@H](N=[N+]=[N-])[C@@H](CO)O2)c(=O)[nH]c1=O | antigen | CEM | 1 µM | I-232 | 95% |
| Nc1nc(N)c2ncn([C@@H]3C[C@H](CO)[C@H]3CO)c2n1 | cytopathic effect / trypan blue | ATH8 | 100 µM | IIIB | 46% |
| Nc1nc(N)c2ncn(CCOCP(=O)(O)O)c2n1 | antigen | H9 | 0.2 µM | IIIB | 67.5% |
| Cc1ccc(C(=O)Nc2ccc(S(=O)(=O)O)c3cc(S(=O)(=O)O)cc(S(=O)(=O)O)c23)cc1NC(=O)c1cccc(NC(=O)Nc2cccc(C(=O)Nc3cc(C(=O)Nc4ccc(S(=O)(=O)O)c5cc(S(=O)(=O)O)cc(S(=O)(=O)O)c45)ccc3C)c2)c1 | plaque count | MT-4 | 50 µg/mL | HTLV-III | 97% |
| COc1c(C(=O)NCc2ccc(C)cc2)ccc2c1C(=O)N(C)C(Cc1ccc([N+](=O)[O-])cc1)N2 | MTT | TZM-bl | 10 µM | - | 0% |
| CC(C)Oc1ccc(OC(C)C)c2c1-c1nc3nc(nc4[nH]c(nc5[nH]c(nc-2n1)c(SCCCC(=O)O)c5SCCCC(=O)O)c(SCCCC(=O)O)c4SCCCC(=O)O)C(SCCCC(=O)O)=C3SCCCC(=O)O | β-galactosidase | MAGI | 5 µg/mL | IIIB | 72% |
| CC(C)(C)NC(=O)[C@@H]1C[C@@H]2CCCC[C@@H]2CN1C[C@@H](O)[C@H](Cc1ccccc1)NC(=O)O[C@@H]1CO[C@@H]2OCC[C@@H]21 | antigen | MT-4 | 0.2 µM | IIIB | 95% |
| Cc1cn([C@H]2C[C@H](N=[N+]=[N-])[C@@H](CO)O2)c(=O)[nH]c1=O | luciferase | Jurkat cells | 0.005 µM | NL4-3 Recombinant | 45% |
| Nc1cccc(CN2C(=O)N(Cc3cccc(N)c3)[C@H](Cc3ccccc3)[C@H](O)[C@@H](O)[C@H]2Cc2ccccc2)c1 | hybridisation | MT-2 | 0.023 µg/mL | RF | 90% |
| Cc1ccc(-c2ccc3c(c2)C=C(C(=O)Nc2ccc(C[N+](C)(C)C4CCOCC4)cc2)CCC3)cc1 | β-galactosidase | MAGI + MAGI-CCR5 | 0.0057 µM | BaL | 90% |
| Nc1ccn([C@@H]2C[C@H](CO)[C@H]2CO)c(=O)n1 | cytopathic effect / trypan blue | ATH8 | 100 µM | IIIB | 10% |

Repeating the final 3 entries:

compound | read by | cells | tested at | strain | value
Nc1cccc(CN2C(=O)N(Cc3cccc(N)c3)[C@H](Cc3ccccc3)[C@H](O)[C@@H](O)[C@H]2Cc2ccccc2)c1 | hybridisation | MT-2 | 0.023 µg/mL | RF | 90%
Cc1ccc(-c2ccc3c(c2)C=C(C(=O)Nc2ccc(C[N+](C)(C)C4CCOCC4)cc2)CCC3)cc1 | β-galactosidase | MAGI + MAGI-CCR5 | 0.0057 µM | BaL | 90%
Nc1ccn([C@@H]2C[C@H](CO)[C@H]2CO)c(=O)n1 | cytopathic effect / trypan blue | ATH8 | 100 µM | IIIB | 10%

Percent inhibition refers to the dose given; in toxicity tests it is the harm to the cells. An empty or dashed field is not shown.